Experimental data: PubChem BioAssay AID624099 (ICCB-Longwood, 2012)
This is an unselected part of about 21,000 reagents. Of all reagents, 497 (2.4%) got an active call. 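Higher z means weaker E2 silencing; only reporter increases were scored, and knock-downs that hurt cell survival may mask genuine repressor factors.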 The numbers tell different reagents against one gene apart.

Purpose: 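Human genes that papillomavirus E2 requires to repress the HPV18 LCR promoter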 (primary screen)
Cell system: human C33A cervical carcinoma cells (HPV-negative) stably expressing BPV1 E2 and an HPV18 LCR luciferase reporter
Reagents: siRNA pool against human genes, 40 nM
Time to read-out: 72 h
Read-out: 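Per-well luciferase luminescence, z-scored on each plate against the plate mean and SD with control wells left out, then averaged across three replicate plates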
Scale: mean z-score and z-score: higher = stronger reporter signal, weaker E2 silencing
Rule for the call: 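Mean z ≥ 2 together with z ≥ 2 in two or more of the three replicates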

Silencing of ZFP2 (ZFP2 zinc finger protein) resulted in: mean z-score -0.08; z-score, replicate A = -0.05; z-score, replicate B = -0.04; z-score, replicate C = -0.16; inactive.
With knock-down of BANF1 (barrier to autointegration nuclear assembly factor 1), the record shows mean z-score 0.54; z-score, replicate A = 0.67; z-score, replicate B = 0.53; z-score, replicate C = 0.4; inactive.
With knock-down of LOC388351 (retired record), the screen gave mean z-score 1.23; z-score, replicate A = 1.47; z-score, replicate B = 1.42; z-score, replicate C = 0.79; inactive.
MLST8 (MTOR associated protein MLST8) scored mean z-score 0.81; z-score, replicate A = 1; z-score, replicate B = 0.16; z-score, replicate C = 1.26; inactive.
RDH10 (retinol dehydrogenase 10) gave mean z-score -1.07; z-score, replicate A = -1.38; z-score, replicate B = -0.61; z-score, replicate C = -1.22; inactive.
After knock-down of BORCS7 (BLOC-1 related complex subunit 7), the screen gave mean z-score 1.64; z-score, replicate A = 1.82; z-score, replicate B = 1.76; z-score, replicate C = 1.35; inactive.
Silencing of GLI1 (GLI family zinc finger 1) gave: mean z-score -0.34; z-score, replicate A = -0.45; z-score, replicate B = -0.21; z-score, replicate C = -0.36; inactive.

Targets above whose target name begins with B or b (2):
BANF1 (barrier to autointegration nuclear assembly factor 1) | mean z-score: 0.54; z-score, replicate A: 0.67; z-score, replicate B: 0.53; z-score, replicate C: 0.4; outcome: inactive
BORCS7 (BLOC-1 related complex subunit 7) | mean z-score: 1.64; z-score, replicate A: 1.82; z-score, replicate B: 1.76; z-score, replicate C: 1.35; outcome: inactive

More results follow.
Depletion of KCNK1 (potassium two pore domain channel subfamily K member 1) came out at: mean z-score -0.86; z-score, replicate A = -0.88; z-score, replicate B = -0.88; z-score, replicate C = -0.82; inactive.
Against LOC389771 (retired record), the entry reads mean z-score 0.7; z-score, replicate A = 0.57; z-score, replicate B = 0.81; z-score, replicate C = 0.71; inactive.
OR2A5 (olfactory receptor family 2 subfamily A member 5) scored mean z-score -0.48; z-score, replicate A = -0.6; z-score, replicate B = -0.38; z-score, replicate C = -0.46; inactive.
TRIP12 (thyroid hormone receptor interactor 12) showed mean z-score -0.63; z-score, replicate A = -0.36; z-score, replicate B = -0.79; z-score, replicate C = -0.73; inactive.
Against ECHDC2 (enoyl-CoA hydratase domain containing 2) the deposit lists mean z-score -0.73; z-score, replicate A = -0.92; z-score, replicate B = -0.68; z-score, replicate C = -0.59; inactive.
For P2RX4 (purinergic receptor P2X 4), the values are mean z-score -0.82; z-score, replicate A = -0.98; z-score, replicate B = -0.82; z-score, replicate C = -0.66; inactive.
With knock-down of CNOT3 (CCR4-NOT transcription complex subunit 3), the record shows mean z-score -0.52; z-score, replicate A = -1; z-score, replicate B = -0.58; z-score, replicate C = 0.03; inactive.
For B4GALNT2, the values are mean z-score 0.37; z-score, replicate A = -0.11; z-score, replicate B = 0.05; z-score, replicate C = 1.16; inactive.
SIVA1 (SIVA1 apoptosis inducing factor) showed mean z-score -1.16; z-score, replicate A = -1.21; z-score, replicate B = -1.18; z-score, replicate C = -1.1; inactive.
LOC391661 (retired record) gave mean z-score 0.09; z-score, replicate A = -0.01; z-score, replicate B = 0.01; z-score, replicate C = 0.28; inactive.
After knock-down of MUC17 (mucin 17, cell surface associated) #1, the screen gave mean z-score -0.6; z-score, replicate A = -0.63; z-score, replicate B = -0.66; z-score, replicate C = -0.52; inactive.
After knock-down of MUC17 (mucin 17, cell surface associated) #2 the results were mean z-score 0.44; z-score, replicate A = 0.61; z-score, replicate B = 0.18; z-score, replicate C = 0.54; inactive.
OCLN (occludin) gave mean z-score 0.9; z-score, replicate A = 0.88; z-score, replicate B = 0.8; z-score, replicate C = 1.01; inactive.
MYLK2 (myosin light chain kinase 2) scored mean z-score -0.78; z-score, replicate A = -0.83; z-score, replicate B = -0.65; z-score, replicate C = -0.86; inactive.
